Compound potency records, mixed from different reports. Data source: NIAID ChemDB in PubChem.

Shared fields: tests in culture; agent: Mycobacterium tuberculosis

a–b is a range or a potency band.

structure,strain or isolate,mutations,cell line,method,setting,endpoint,dose,value
NC(=O)C(=O)CC(=O)c1ccccc1NC1=CC(=O)C(=O)c2ccccc21,H37Rv,,VERO,resazurin,,MIC,,≤0.1 µg/mL
CCCCCOc1ccc(NC(=O)OCC[NH+]2CCCC2)cc1,My 331/88,,,,,MIC,,62.5 µM
CCOC(=O)c1c(-c2ccc(-c3noc(C)c3C(=O)OCC)cc2)noc1C,H37Rv,,,resazurin,,inhibition,6.25 µg/mL,-18%
O=C(Cc1ccccc1)SCC1CS1,H37Rv,,,,,MIC,,12.5 µg/mL
C=CCNC(=S)/N=C/C(C(=O)Nc1ccccc1)=C(/C)O,H37Rv,,,resazurin,,inhibition,6.25 µg/mL,-15%
CCOc1ccccc1NC(=O)OCCN1CCCCC1,My 331/88,,,,,MIC,,1000 µM
O=C(NN1C(=O)c2ccc([N+](=O)[O-])cc2C1=O)c1ccc(-n2cccc2)cc1,H37Rv,,,resazurin,,MIC,,3.125 µg/mL
N#Cc1ncc(C(Cl)(Cl)Cl)nc1Cl,RMP-R,,,,,MIC,,3.1 µg/mL
CN(C)c1ccc(-c2nc(Nc3ccc(F)cc3)[nH]c(=O)c2C#N)cc1,H37Ra,,,,,MIC,,>50 µg/mL
O=c1cc(-c2ccc(O)c(O)c2-c2c(O)cc(O)c3c(=O)cc(-c4ccc(O)cc4)oc23)oc2cc(O)cc(O)c12,MTCS1,,,resazurin,,MIC,,>39.06 µg/mL
CN(C)c1ccc(-c2nc(N3CCN(c4ccccc4)CC3)[nH]c(=O)c2C#N)cc1,H37Ra,,,,,MIC,,>50 µg/mL
CCCCCCCCOc1ccccc1NC(=O)OCC[NH+]1CCCC1,My 331/88,,,,,MIC,,16 µM
O=C(NN1C(=O)CCC1=O)c1ccc(-n2cccc2)cc1,H37Rv,,,resazurin,,MIC,,6.25 µg/mL
CCCCCCOc1ccc(NC(=O)OCCN(C)C)cc1,My 331/88,,,,,MIC,,16 µM
O=C1c2cc([N+](=O)[O-])ccc2-n2c1nc1ccc(Cl)cc1c2=O,MDR 10038,,,,,MIC,,<1 µg/mL
O=C1c2ncn(C3O[C@H](CO)[C@@H](O)[C@H]3O)c2NC2=NC=NC12,H37Rv,,,resazurin,,inhibition,6.25 µg/mL,10%
NNC(=O)c1ccncc1,PMH29:inhA,,,,,MIC,,0.05 µg/mL
Cc1cccc2c(=O)n3c(nc12)C(=O)c1ccccc1-3,MDR 10038,,,,,MIC,,5 µg/mL
CC(C)=CCc1cc(/C=C/C(=O)c2cc(CC=C(C)C)c(O)cc2O)ccc1O,MTCS1,,,resazurin,,MIC,,>39.06 µg/mL
NC(N)=NNC(=O)CCn1[nH]c(=O)c(Cl)c(Cl)c1=O,H37Rv,,,BACTEC,,MIC bound,,>6.25 µg/mL
COc1ccc(-c2nc(N3CCc4ccccc4C3)[nH]c(=O)c2C#N)cc1,H37Ra,,,,,MIC,,>50 µg/mL
COc1c(OCc2ccccc2)ccc2c1c[n+](C)c1c3cc4c(cc3ccc21)OCO4,H37Rv,,,BACTEC,,inhibition,12.5 µg/mL,100%
O=C1c2cc(F)ccc2-n2c1nc1ncccc1c2=O,H37Rv,,,,,MIC,,<0.5 µg/mL
CC1(C)N=C(N)N=C(N)N1OCCCOc1ccc(Cl)cc1Cl,H37Rv,Overexpressing DHFR,,resazurin / fluorescence,,MIC90,,11.7 µM
CCOC(=O)c1ccc2c(c1)C(=O)c1nc3ccccc3c(=O)n1-2,H37Rv,,,,,MIC,,<0.4 µg/mL
COCC(O)CNCCNCC(O)COC,H37Rv,,,,,inhibition,6.25 µg/mL,10%
O=C(Oc1cc(Cl)ccc1C(=O)Nc1ccc(C(F)(F)F)cc1)c1cnccn1,multidrug resistant Praha 1,,,,21 d,MIC,,0.25 µM
COc1c(O)ccc2c1c[n+](C)c1c3cc4c(cc3ccc21)OCO4,H37Rv,,,BACTEC,,MIC,,>12.5 µg/mL
CCCCCCCOc1ccc(NC(=O)OCCN2CCOCC2)cc1,My 331/88,,,,,MIC,,16 µM
O=C(NN1C(=O)c2c(F)c(F)c(F)c(F)c2C1=O)c1ccc(-n2cccc2)cc1,H37Rv,,,resazurin,,MIC,,0.2 µg/mL
CC(C)n1c(-c2ccc(Br)cc2)cs/c1=N\NC(=O)COc1cnccn1,H37Rv,,,,,MIC,,15 µg/mL
O=C(CN1C(=O)c2ccccc2C1=O)SCC1CS1,H37Rv,,,,,MIC,,>50 µg/mL
O=C(Cn1cc(F)c(=O)[nH]c1=O)C12CC3CC(CC(C3)C1)C2,H37Rv,,,resazurin,,inhibition,6.25 µg/mL,6%
Cc1ccccc1OCCCON1C(N)=NC(N)=NC1(C)C,H37Rv,,,resazurin / fluorescence,,MIC90,,0.5 µM
N#Cc1c(-c2cccnc2)nc(NC2CCCCC2)[nH]c1=O,H37Ra,,,,,MIC,,>50 µg/mL
O=C(COc1cnccn1)N/N=c1\scc(-c2ccc(Br)cc2)n1-c1ccc(Cl)cc1Cl,H37Rv,,,,,MIC,,10.5 µg/mL
COc1ccccc1NC(=O)/C(=C\n1c(=S)[nH]c2ccc([N+](=O)[O-])cc21)C(C)=O,H37Rv,,,resazurin,,MIC bound,,>6.25 µg/mL
Cc1ccc(-c2cs/c(=N\NC(=O)COc3cnccn3)n2C(C)C)cc1,H37Rv,,,,,MIC,,9.5 µg/mL
Cc1cc(=O)oc2c(C)c3oc4ccncc4c3cc12,H37Rv,,,BACTEC,,MIC bound,,>12.5 µg/mL
CO[C@H]1/C=C/O[C@@]2(C)Oc3c(C)c(O)c4c(O)c(c5c(c4c3C2=O)NC2(CCN(CC(C)C)CC2)N=5)=NC(=O)/C(C)=C\C=C\[C@H](C)[C@H](O)[C@@H](C)[C@@H](O)[C@@H](C)[C@H](OC(C)=O)[C@@H]1C,Isolate 900241 drug-susceptible,,,,,MIC,,0.125 µg/mL
CC1(C)N=C(N)N=C(N)N1OCCc1ccc2ccccc2c1,H37Rv,,,resazurin / fluorescence,,MIC90,,1 µM
CO[C@H]1/C=C/O[C@@]2(C)Oc3c(C)c(O)c4c(O)c(c(/C=N/N5CCN(C)CC5)c(O)c4c3C2=O)NC(=O)/C(C)=C\C=C\[C@H](C)[C@H](O)[C@@H](C)[C@@H](O)[C@@H](C)[C@H](OC(C)=O)[C@@H]1C,,526Asp,,,,MIC99,,≥640 µg/mL
CN(C)c1ccc(-c2nc(NC3CCCCCC3)[nH]c(=O)c2C#N)cc1,H37Ra,,,,,MIC,,>50 µg/mL
CCN=c1cc2n(-c3ccc(Cl)cc3)c3ccccc3nc-2cc1Nc1ccc(Cl)cc1,H37Rv,,,,,MIC,,0.06 µg/mL
Cc1cccc(NN=O)n1,H37Rv,,,BACTEC,,inhibition,12.5 µg/mL,76%
CCCCCCOc1ccc(NC(=O)OCCN2CCCCCC2)cc1,My 331/88,,,,,MIC,,16 µM
CCc1cc(C(C)=O)ccc1OCCCON1C(N)=NC(N)=NC1(C)C,H37Rv,Overexpressing DHFR,,resazurin / fluorescence,,MIC90,,>2 µM
Cc1ccc(C)n1-c1nc(-c2ccc(N)cc2)cs1,H37Rv,,,resazurin,,MIC,,12.5 µg/mL
CC(C)N1C(=O)CS/C1=N\NC(=O)COc1cnccn1,H37Rv,,,,,MIC,,191 µg/mL
O=C(Oc1ccc(Br)cc1C(=O)Nc1ccc(C(F)(F)F)cc1)c1cnccn1,multidrug resistant 9449/2006,,,,21 d,MIC,,0.5 µM
O=C1c2cc(F)ccc2-n2c1nc1cccc(F)c1c2=O,MDR 10038,,,,,MIC,,5 µg/mL
CC(C)N=c1cc2n(-c3ccc(Cl)cc3)c3ccccc3nc-2cc1Nc1ccc(Cl)cc1,H37Rv,,,,,MIC,,0.12 µg/mL
CCCCCCC(=O)SCC1CS1,H37Rv,,,,,MIC,,6.25–12.5 µg/mL
O=[N+]([O-])c1ccc2nc3ccccc3[n+]([O-])c2c1,H37Rv,,,,,MIC,,0.8 µg/mL
COc1c(N2CCNC(C)C2)c(F)cc2c(=O)c(C(=O)O)cn(C3CC3)c12,H37Rv,,,,,MIC,,0.1 µg/mL
COc1ccc(-c2csc(-n3cccc3)n2)cc1,H37Rv,,,resazurin,,MIC,,12.5 µg/mL
Nn1cnc2cc3ccccc3cc2c1=O,H37Rv,,,BACTEC,,inhibition,12.5 µg/mL,3%
CCN=c1cc2n(-c3ccccc3)c3ccc(Cl)cc3nc-2cc1Nc1ccccc1,H37Rv,,,,,MIC,,2 µg/mL
CCCCCCCCCCCCCCCCOc1ccc(S(=O)(=O)Nc2cc(C(=O)OC)cc(C(=O)OC)c2)cc1[N+](=O)[O-],H37Rv,,,BACTEC,,MIC bound,,>12.5 µg/mL
C/C(=N\NC(=S)N(C)C)c1ccccn1.[Cu][Br],KZN494,,,,,MIC90,,6.25 µM
O=C(Oc1ccc(Cl)cc1C(=O)Nc1cccc(C(F)(F)F)c1)c1cnccn1,multidrug resistant 234/2005,,,,21 d,MIC,,2 µM
CC1(C)[C@H](O)C[C@@H]2[C@@](C)(O)[C@H]3CC[C@H]4[C@H](O)[C@]3(C[C@H](O)[C@]21O)C[C@@]4(C)O,H37Rv,,,BACTEC,,MIC,,≥12.5 µg/mL
O=C(Oc1ccc(Cl)cc1C(=O)Nc1ccc(C(F)(F)F)cc1)c1cnccn1,extensively drug resistant Praha 131,,,,14 d,MIC,,0.125 µM
CC(=O)Nc1ccc(C(=O)SCC2CS2)cc1,H37Rv,,,,,MIC,,3.125–6.25 µg/mL
Nc1c(C(=O)Nc2ccc(S(N)(=O)=O)cc2)[n+]([O-])c2ccccc2[n+]1[O-],H37Rv,,,BACTEC,,inhibition,12.5 µg/mL,3%
O=C(SCC1CS1)C(c1ccccc1)c1ccccc1,H37Rv,,,,,MIC,,>50 µg/mL
O=C1c2cc(Cl)ccc2-n2c1nc1ccccc1c2=O,MDR 10038,,,,,MIC,,1 µg/mL
CCCCCCCCCCC[C@@H]1CCC[C@@H](C)N1,INH-r,,,,,MIC,,6.4 µg/mL
Cc1cc(C)cc(OCCCON2C(N)=NC(N)=NC2(C)C)c1,H37Rv,,,resazurin / fluorescence,,MIC90,,1 µM
CC1=CC(=O)N(NC(=O)c2ccc(-n3cccc3)cc2)C1=O,H37Rv,,,resazurin,,MIC,,0.8 µg/mL
O=C1c2cccc(F)c2-n2c1nc1ccccc1c2=O,MDR 10038,,,,,MIC,,1 µg/mL
O=C(Oc1ccc(Cl)cc1C(=O)Nc1ccc(Cl)c(Cl)c1)c1cnccn1,H37Rv 331/88,,,,21 d,MIC,,1 µM
CCCNc1nc(-c2ccc(F)cc2)c(C#N)c(=O)[nH]1,H37Ra,,,,,MIC,,>50 µg/mL
COC(=O)C1=C(N)SS/C1=C\[N+](=O)[O-],H37Rv,,,BACTEC,,inhibition,12.5 µg/mL,73%
C[C@@H]1Oc2nc([N+](=O)[O-])cn2C[C@@H]1OCc1ccc(OC(F)(F)F)cc1,H37Rv-T2,,,absorbance,,MIC,,>100 µM
CCN(CC)CCCC(C)Nc1nc(-c2ccc(F)cc2)c(C#N)c(=O)[nH]1,H37Ra,,,,,MIC,,>50 µg/mL
CC1COc2c(N3CCN(C)CC3)c(F)cc3c(=O)c(C(=O)O)cn1c23,001-010 (drug-resistant),,,,,MBC,,1.5 µg/mL
O=C(SCC1CS1)c1ccc([N+](=O)[O-])cc1,H37Rv,,,,,MIC,,6.25 µg/mL
O=C(COc1cnccn1)NNC(=S)Nc1ccc(Cl)cc1Cl,H37Rv,,,,,MIC,,65 µg/mL
CCCCOc1ccc(NC(=O)OCCN2CCCCC2)cc1,My 331/88,,,,,MIC,,62.5 µM
CC1(C)OC2COC3OC(C)(C)OC3C2O1,H37Rv,,,BACTEC,,MIC bound,,>6.25 µg/mL
COc1cc(OC)c2c(c[n+](C)c3c4cc5c(cc4ccc23)OCO5)c1OC,H37Rv,,,BACTEC,,MIC,,>12.5 µg/mL
Cl.NCCCCC(NC(=O)C(N)Cc1ccc(O)cc1)C(=O)NC(CCCCN)C(=O)NC(CCCCN)C(=O)ON1C(=O)CCC1=O,H37Rv,,,BACTEC,,MIC bound,,>12.5 µg/mL
CN(C)c1ccc(-c2nc(NC3CCCCC3)[nH]c(=O)c2C#N)cc1,H37Ra,,,,,MIC,,>50 µg/mL
CCCCCCOc1cccc(NC(=O)OCC[NH+]2CCCC2)c1,My 331/88,,,,,MIC,,32 µM
C[n+]1cc2c3c(ccc2c2ccc4cc5c(cc4c21)OCO5)OCO3,H37Rv,,,BACTEC,,MIC,,<12.5 µg/mL
O=C(Oc1cc(Cl)ccc1C(=O)Nc1ccc(Cl)c(Cl)c1)c1cnccn1,H37Rv 331/88,,,,14 d,MIC,,2 µM
Nc1ccc(-c2csc(-n3cccc3)n2)cc1,H37Rv,,,resazurin,,MIC,,25 µg/mL

Repeating the first 7 entries:

| structure | strain or isolate | mutations | cell line | method | setting | endpoint | dose | value |
|---|---|---|---|---|---|---|---|---|
| NC(=O)C(=O)CC(=O)c1ccccc1NC1=CC(=O)C(=O)c2ccccc21 | H37Rv |  | VERO | resazurin |  | MIC |  | ≤0.1 µg/mL |
| CCCCCOc1ccc(NC(=O)OCC[NH+]2CCCC2)cc1 | My 331/88 |  |  |  |  | MIC |  | 62.5 µM |
| CCOC(=O)c1c(-c2ccc(-c3noc(C)c3C(=O)OCC)cc2)noc1C | H37Rv |  |  | resazurin |  | inhibition | 6.25 µg/mL | -18% |
| O=C(Cc1ccccc1)SCC1CS1 | H37Rv |  |  |  |  | MIC |  | 12.5 µg/mL |
| C=CCNC(=S)/N=C/C(C(=O)Nc1ccccc1)=C(/C)O | H37Rv |  |  | resazurin |  | inhibition | 6.25 µg/mL | -15% |
| CCOc1ccccc1NC(=O)OCCN1CCCCC1 | My 331/88 |  |  |  |  | MIC |  | 1000 µM |
| O=C(NN1C(=O)c2ccc([N+](=O)[O-])cc2C1=O)c1ccc(-n2cccc2)cc1 | H37Rv |  |  | resazurin |  | MIC |  | 3.125 µg/mL |

MIC bound comes from a single tested concentration. An empty or dashed field is not shown. Neighbouring rows are from separate reports. Inhibition is in % at the dose shown (toxicity tests: loss of growth or viability). MIC50, MIC90 and the like: level of inhibition, or share of isolates inhibited.